Pooled drug test results. Numbers come from NIAID ChemDB, via PubChem.

Common to all: toxicity to cultured cells; cells: MT-4; read-out: CC50

Rows are shuffled and stem from different studies. CCn is the concentration with n% toxicity to the cells. a–b is a range or a potency band. An empty or dashed field is not shown.

compound,method,value
CCN1C(=O)N(Cc2ccccc2)S(=O)(=O)c2cscc21,-,775.4 µM
CC1NS(=O)(=O)c2cc(Cl)ccc2NC1=O,-,≥200 µM
C=C(C)CN1C(C)C(=S)Nc2ccc(Cl)cc2S1(=O)=O,MTT,47 µM
Cc1ccnc2c1NC(=O)c1cccnc1N2C1CC1,-,>97.6 µM
Cc1cn([C@@H]2O[C@H](CO[Si](c3ccccc3)(c3ccccc3)C(C)(C)C)C3(OS(=O)(=O)C=C3N)[C@H]2O[Si](c2ccccc2)(c2ccccc2)C(C)(C)C)c(=O)[nH]c1=O,-,>150 µM
O=C(CSc1nncnc1-c1ccccc1Cl)c1ccc(Cl)c(Cl)c1,MTT,33 µM
CN1C(=O)Nc2cscc2S1(=O)=O,-,>99.8 µM
COC(=O)c1ccc(C(=O)N2CCC(NC(=O)c3cc(O)c(O)c(O)c3)CC2)cc1,MTT,26.9 µM
C=CCN1C(=O)N(Cc2ccccc2)S(=O)(=O)c2cscc21,-,303.8 µM
Nc1ccc(Cl)cc1S(=O)(=O)NCC(=O)O,MTT,>200 µM
COc1nc(=O)[nH]c2c1C(c1ccc([N+](=O)[O-])cc1)c1c(OC)nc(=O)[nH]c1O2,-,>313 µM
CC(C)OP(=O)(COCC1(Cn2ccc(N)nc2=O)CC=CC1)OC(C)C,-,>100 µg/mL
Nc1ccn([C@H]2CC[C@@H](CO)O2)c(=O)n1,MTT,>2.12 µg/mL
C=CCOCn1c(Cc2ccccc2)c(C(C)C)c(=O)[nH]c1=O,-,>100 µM
Cc1ccnc2c1NC(=O)c1cccnc1N2C1CC1,MTT,>200 µM
O=C(c1ccccc1)N1C(=O)N(Cc2ccccc2)S(=O)(=O)c2cscc21,-,132.3 µM
O=C1c2cccn2-c2ccc(Cl)cc2S(=O)(=O)N1C1CCCCC1,-,>200 µM
N#Cc1ccc(Nc2nccc([C@H](O)c3ccccc3Cl)n2)cc1,MTT,25 µM
COc1nc(=O)[nH]c2c1C(c1ccc(Br)cc1)c1c(OC)nc(=O)[nH]c1O2,-,>309 µM
Cc1cn([C@@H]2O[C@H](COCc3ccccc3)C3(OS(=O)(=O)C=C3N)[C@H]2O[Si](C)(C)C(C)(C)C)c(=O)[nH]c1=O,-,13 µM
CCN(CC(=O)O)S(=O)(=O)c1cc(Cl)ccc1N,MTT,>200 µM
Cc1c(Sc2cccc3ccccc23)n(COCc2ccccc2)c(=O)[nH]c1=O,MTT,52.5 µM
O=C1Nc2cscc2S(=O)(=O)N1c1ccc(F)cc1,-,435.8 µM
CC(=O)c1ccc(NC(=O)CSc2nncnc2-c2ccccc2Cl)c(Br)c1,MTT,34 µM
O=c1[nH]cnc2c1ncn2[C@H]1CC[C@@H](CO)O1,-,>100 µM
Cc1cc(NC(=O)Cc2ccc3ccccc3c2)ccc1N1C(=O)c2ccc(Cl)cc2C1=O,MTT / absorbance,0.42 µM
CCc1c(Sc2ccc3ccccc3c2N)n(COC)c(=O)[nH]c1=O,MTT,180 µM
CCc1c(Cc2cccc(Br)c2)nc(SCc2ccc([N+](=O)[O-])cc2)[nH]c1=O,-,>187 µM
CC(C)(C)NC(=O)[C@@H]1CC2CCCCC2CN1C[C@@H](OC(=O)CCC(=O)O[C@H]1[C@@H](C2COC(C)(C)O2)OC2OC(C)(C)O[C@H]21)[C@H](Cc1ccccc1)NC(=O)[C@H](CC(N)=O)NC(=O)c1ccc2ccccc2n1,-,8 µM
C1CNCCNCCCN[C@H]([C@H]2CNCCCNCCNCCCN2)CNC1,-,298 µg/mL
O=C(CSc1nncnc1-c1ccccc1Cl)Nc1ccccc1,MTT,127 µM
Cc1cn([C@H]2C[C@H](F)[C@@H](CO)O2)c(=O)[nH]c1=O,-,0.25 µM
COCn1c(Sc2cccc3ccccc23)c(C(C)C)c(=O)[nH]c1=O,MTT,38.4 µM
Cc1ccnc2c1NC(=O)c1cccnc1N2C1CC1,-,>100 µM
Cc1cc(C)cc(CN2C(C)C(=O)Nc3ccc(Cl)cc3S2(=O)=O)c1,MTT,>200 µM
CCOCn1c(Sc2ccc3ccccc3c2)c(CC)c(=O)[nH]c1=O,MTT,42.19 µM
Nc1ccn([C@H]2C=C[C@@H](CO)O2)c(=O)n1,-,2–10 µg/mL
CC(C)Nc1cccnc1N1CCN(C(=O)c2cc3cc(NS(C)(=O)=O)ccc3[nH]2)CC1,MTT,>4.4 µM
Cc1ccnc(N2C(=O)CSC2c2c(F)cccc2F)n1,-,>406.7 µM
Cc1cc(NC(=S)c2ccc(Cl)cc2)ccc1N1C(=O)c2ccc(Cl)cc2C1=O,MTT / absorbance,0.517 µM
O=c1[nH]c(=O)n([C@H]2C[C@H](F)[C@@H](CO)O2)cc1Cl,-,180 µM
Cc1cn([C@@H]2O[C@H](COCc3ccccc3)C3(OS(=O)(=O)C(Cc4ccccc4)=C3NCc3ccccc3)[C@H]2O[Si](C)(C)C(C)(C)C)c(=O)n(C)c1=O,-,>130 µM
COC(=O)c1ccc(NC(=O)CSc2nncnc2-c2ccccc2Cl)c(Br)c1,MTT,59 µM
O=C(NC1CCN(C(=O)c2ccc(F)cc2)CC1)c1cc(O)c(O)c(O)c1,MTT,30.8 µM
C1CNCCNCCCNCCNC1,-,226 µg/mL
O=C(O)C(=O)CC(=O)c1cc(OCc2ccccc2)cc(OCc2ccccc2)c1,-,88.3 µM
CCOCn1c(Sc2cccc3ccccc23)c(CC)c(=O)[nH]c1=O,MTT,38.4 µM
CC(C)=CCN1C(C)CNc2ccc(Cl)cc2S1(=O)=O,-,4.8 µM
N#CCCN1C(=O)N(Cc2ccccc2)S(=O)(=O)c2cscc21,-,130.4 µM
CC(C)Cc1c(Sc2cccc3ccccc23)n(COCc2ccccc2)c(=O)[nH]c1=O,MTT,32.51 µM
CCS(=O)(=O)N1CCC(NC(=O)c2cc(O)c(O)c(O)c2)CC1,MTT,36.6 µM
CCOCn1c(Cc2ccccc2)c(C(C)C)c(=O)[nH]c1=O,-,>100 µM
Cc1cn([C@H]2C[C@H](N=[N+]=[N-])[C@@H](COC(=O)CCC(=O)OCC3OC4OC5C(COS(=O)(=O)O)OC(OC6C(COS(=O)(=O)O)OC(OC7C(COS(=O)(=O)O)OC(OC8C(COS(=O)(=O)O)OC(OC9C(COS(=O)(=O)O)OC(OC3C(OS(=O)(=O)O)C4OS(=O)(=O)O)C(OS(=O)(=O)O)C9OS(=O)(=O)O)C(OS(=O)(=O)O)C8OS(=O)(=O)O)C(OS(=O)(=O)O)C7OS(=O)(=O)O)C(OS(=O)(=O)O)C6OS(=O)(=O)O)C(OS(=O)(=O)O)C5OS(=O)(=O)O)O2)c(=O)[nH]c1=O,MTT,55.33 µg/mL
CC(C)=CCN1C(C)Cn2c(=O)[nH]c3cc(Cl)cc(c32)S1(=O)=O,MTT,>200 µM
CC(C)(C)NC(=O)[C@@H]1CC2CCCCC2CN1C[C@@H](OC(=O)CC(=O)O[C@H]1[C@@H](C2COC(C)(C)O2)OC2OC(C)(C)O[C@H]21)[C@H](Cc1ccccc1)NC(=O)[C@H](CC(N)=O)NC(=O)c1ccc2ccccc2n1,-,>10 µM
Cc1cc(N=C/C=C/c2ccccc2)ccc1N1C(=O)c2ccc(Cl)cc2C1=O,MTT / absorbance,0.538 µM
CCN1C(=O)c2cccn2-c2ccccc2S1(=O)=O,-,>200 µM
O=c1[nH]c2c(c(=O)[nH]1)C(c1ccc(I)cc1)c1c([nH]c(=O)[nH]c1=O)O2,-,>276 µM
CC(C)(C)NC(=O)[C@@H]1C[C@@H]2CCCC[C@@H]2CN1C[C@@H](O)[C@H](Cc1ccccc1)NC(=O)[C@H](CC(N)=O)NC(=O)c1ccc2ccccc2n1,-,>10 µM
Cc1cn([C@@H]2O[C@H](CO[Si](C)(C)C(C)(C)C)C3(OS(=O)(=O)C=C3N)[C@H]2O[Si](C)(C)C(C)(C)C)c(=O)n(C)c1=O,-,14 µM
CCN1C(C)C(=O)Nc2ccc(Cl)cc2S1(=O)=O,-,≥200 µM
CCOCn1c(Sc2cccc3ccccc23)c(C(C)C)c(=O)[nH]c1=O,MTT,33.2 µM
CC(C)=CCN1C(C)C(=O)N(C(C)C)c2ccc(Cl)cc2S1(=O)=O,-,56 µM
Cc1cn([C@H]2C[C@H](F)[C@@H](CO)O2)c(=O)[nH]c1=O,-,>0.001 µM
CC(C)(C)NC(=O)[C@@H]1C[C@@H]2CCCC[C@@H]2CN1C[C@@H](OC(=O)CCCCO[C@@H]1[C@@H](O)[C@@H](O)O[C@H](CO)[C@H]1O)[C@H](Cc1ccccc1)NC(=O)[C@H](CC(N)=O)NC(=O)c1ccc2ccccc2n1,-,>10 µM
COc1cc(C)nc(N2C(=O)CSC2c2c(Cl)cccc2Cl)n1,-,52.5 µM
O=C(NC1CCN(C(=O)c2ccccc2)CC1)c1cc(O)c(O)c(O)c1,MTT,38.3 µM
Cc1cc(NC(=O)c2ccccc2)ccc1N1C(=O)c2ccc(Cl)cc2C1=O,MTT / absorbance,0.638 µM
CC(C)c1c(Sc2ccc3ccccc3c2)n(COCc2ccccc2)c(=O)[nH]c1=O,MTT,187 µM
Cc1cc(NS(=O)(=O)C(F)(F)F)ccc1N1C(=O)c2ccc(Cl)cc2C1=O,MTT / absorbance,0.234 µM
Cc1cn([C@H]2C[C@H](N=[N+]=[N-])[C@@H](CO)O2)c(=O)[nH]c1=O,-,1.02 µg/mL
Cc1ccnc2c1NC(=O)c1cccnc1N2C1CC1,MTT / absorbance,>10 µM
O=c1[nH]c(=S)[nH]c2c1C(c1ccc(Cl)cc1)c1c([nH]c(=S)[nH]c1=O)O2,-,137 µM
CC(=O)SCCOP(=O)(OCCSC(C)=O)OC[C@@H]1CC[C@H](n2cnc3c(=O)[nH]cnc32)O1,-,>100 µM
CCOC(=O)CNS(=O)(=O)c1cc(Cl)ccc1[N+](=O)[O-],MTT,>73 µM
Cc1ccnc(N2C(=O)CSC2c2c(Cl)cccc2Cl)n1,-,180 µM
CCc1c(Cc2ccc(-c3ccccc3)cc2)nc(SCc2ccc(OC)cc2)[nH]c1=O,-,>194 µM
Cc1cn([C@@H]2O[C@H](CO[Si](C)(C)C(C)(C)C)C3(OS(=O)(=O)C=C3N)[C@H]2O)c(=O)[nH]c1=O,-,95 µM
O=c1[nH]cnc2c1ncn2[C@H]1CC[C@@H](CO)O1,-,>2.71 µM
Cc1cn([C@H]2C[C@H](N=[N+]=[N-])[C@@H](COC(=O)CCC(=O)OC[C@H]3O[C@@H]4O[C@H]5[C@H](O)[C@@H](O)[C@@H](O[C@H]6[C@H](O)[C@@H](O)[C@@H](O[C@H]7[C@H](O)[C@@H](O)[C@@H](O[C@H]8[C@H](O)[C@@H](O)[C@@H](O[C@H]9[C@H](O)[C@@H](O)[C@@H](O[C@H]3[C@H](O)[C@H]4O)O[C@@H]9CO)O[C@@H]8CO)O[C@@H]7CO)O[C@@H]6CO)O[C@@H]5CO)O2)c(=O)[nH]c1=O,MTT,7.37 µg/mL
Cc1cc(=O)[nH]c(N2C(=O)CSC2c2c(F)cccc2Cl)n1,-,1.32 µM
Cc1ccnc2c1NC(=O)c1cccnc1N2C1CC1,MTT,>15 µM

Repeating the final 6 entries:

CCc1c(Cc2ccc(-c3ccccc3)cc2)nc(SCc2ccc(OC)cc2)[nH]c1=O ; value: >194 µM
Cc1cn([C@@H]2O[C@H](CO[Si](C)(C)C(C)(C)C)C3(OS(=O)(=O)C=C3N)[C@H]2O)c(=O)[nH]c1=O ; value: 95 µM
O=c1[nH]cnc2c1ncn2[C@H]1CC[C@@H](CO)O1 ; value: >2.71 µM
Cc1cn([C@H]2C[C@H](N=[N+]=[N-])[C@@H](COC(=O)CCC(=O)OC[C@H]3O[C@@H]4O[C@H]5[C@H](O)[C@@H](O)[C@@H](O[C@H]6[C@H](O)[C@@H](O)[C@@H](O[C@H]7[C@H](O)[C@@H](O)[C@@H](O[C@H]8[C@H](O)[C@@H](O)[C@@H](O[C@H]9[C@H](O)[C@@H](O)[C@@H](O[C@H]3[C@H](O)[C@H]4O)O[C@@H]9CO)O[C@@H]8CO)O[C@@H]7CO)O[C@@H]6CO)O[C@@H]5CO)O2)c(=O)[nH]c1=O ; method: MTT ; value: 7.37 µg/mL
Cc1cc(=O)[nH]c(N2C(=O)CSC2c2c(F)cccc2Cl)n1 ; value: 1.32 µM
Cc1ccnc2c1NC(=O)c1cccnc1N2C1CC1 ; method: MTT ; value: >15 µM